Kd and IC50 data for 7 molecules are collected here from patent US20240059757A1 (VIR BIOTECHNOLOGY, published 2024).

Where “and” joins values, the source holds several entries; their conditions need not be identical. Identical values can stand only once.

Assay [1] concerns the target WIV1 spike protein RBD (WIV1). Kind of assay: BLI. Background: Biolayer interferometry detects binding as a change in optical thickness at a sensor tip.
Assay [2] concerns the target PANG/GD spike protein RBD (PANG/GD). Kind of assay: ELISA. In general terms: ELISA stands for enzyme-linked immunosorbent assay.
Assay [3] concerns the target BtKY72 spike protein RBD (BtKY72). Kind of assay: ELISA.

B1: S2X259 variant antibody, VH SEQ ID NO 408 / VL SEQ ID NO 442 (antibody, V domains shown)
VH: QVQLVQSGAEVKKPGSSVKVSCKASGGIFNTYTISWVRQAPGQGLEWMGRIILMSGMANYAQKIQGRVTITADKSTSTAYMELTSLRSDDTAVYYCARGFNGNYYGWGDDDAFDISGQGTLVTVYS
VL: QTVLTQPPSVSGAPGQRVTISCTGSNSNIGAGYDVHWYQQLPGTAPKLLISGNSNRPSGVPDRFSGSKSGTSASLAITGLQAEDEADYYCQSYDSSLSGPNWVFGGGTKLTVL
What is called Kd is the free concentration of one partner at which half of the binding sites on the other are occupied at equilibrium, for simple one-to-one binding. Read a high Kd as a looser complex. In assay [1], B1 showed a Kd of 0.345 nM.

B2: S2X259 variant antibody, VH SEQ ID NO 408 / VL SEQ ID NO 444 (antibody, V domains shown)
VH: QVQLVQSGAEVKKPGSSVKVSCKASGGIFNTYTISWVRQAPGQGLEWMGRIILMSGMANYAQKIQGRVTITADKSTSTAYMELTSLRSDDTAVYYCARGFNGNYYGWGDDDAFDISGQGTLVTVYS
VL: QTVLTQPPSVSGAPGQRVTISCTGSNSNIGAGYDVHWYQQLPGTAPKLLIYGNSNRPSGVPDRFSGSKSGTSASLAITGLQAEDEADYYCQSYDSSLSGPNWVFGGGTKLTVL
On to B2, for which, in assay [1], the Kd came to 0.986 nM.

B3: S2X259 variant antibody, VH SEQ ID NO 458 / VL SEQ ID NO 445 (antibody, V domains shown)
VH: QVQLVQSGAEVKKPGSSVKVSCKASGGIFNTYTISWVRQAPGQGLEWMGRIILMSGMANYAQKIQGRVTITADKSTSTAYMELTSLRSDDTAVYYCARGFNGNYYGWGDDDAFDIWGQGTLVTVSS
VL: QTVLTQPPSVSGAPGQRVTISCTGSNSNIGAGYDVHWYQQLPGTAPKLLIVGNSNRPSGVPDRFSGSKSGTSASLAITGLQAEDEADYYCQSYDSSLSGPNWVFGGGTKLTVL
By IC50 is commonly meant the concentration that inhibits the measured activity by half. Lower therefore signals inhibition by little substance. In the case of B3, in assay [2], the 50% inhibitory concentration (IC50) was ≥ 0.05 µg/mL and ≤ 0.1 µg/mL.

B4: S2X259 variant antibody, VH SEQ ID NO 459 / VL SEQ ID NO 445 (antibody, V domains shown)
VH: QVQLVQSGAEVKKPGSSVKVSCKASGGIFNTYTISWVRQAPGQGLEWMGRIILMSGKANYAQKIQGRVTITADKSTSTAYMELTSLRSDDTAVYYCARGFNGNYYGWGDDDAFDIWGQGTLVTVSS
VL: QTVLTQPPSVSGAPGQRVTISCTGSNSNIGAGYDVHWYQQLPGTAPKLLIVGNSNRPSGVPDRFSGSKSGTSASLAITGLQAEDEADYYCQSYDSSLSGPNWVFGGGTKLTVL
On to B4, for which the IC50 in assay [3] is ≥ 0.05 µg/mL and ≤ 0.1 µg/mL; in assay [2], ≥ 0.05 µg/mL and ≤ 0.1 µg/mL.

B5: S2X259 variant antibody, VH SEQ ID NO 408 / VL SEQ ID NO 445 (antibody, V domains shown)
VH: QVQLVQSGAEVKKPGSSVKVSCKASGGIFNTYTISWVRQAPGQGLEWMGRIILMSGMANYAQKIQGRVTITADKSTSTAYMELTSLRSDDTAVYYCARGFNGNYYGWGDDDAFDISGQGTLVTVYS
VL: QTVLTQPPSVSGAPGQRVTISCTGSNSNIGAGYDVHWYQQLPGTAPKLLIVGNSNRPSGVPDRFSGSKSGTSASLAITGLQAEDEADYYCQSYDSSLSGPNWVFGGGTKLTVL
The molecule B5 yielded a Kd in assay [1] of 0.446 nM. This counts as sub-nanomolar.

B6: S2X259 variant antibody, VH SEQ ID NO 408 / VL SEQ ID NO 443 (antibody, V domains shown)
VH: QVQLVQSGAEVKKPGSSVKVSCKASGGIFNTYTISWVRQAPGQGLEWMGRIILMSGMANYAQKIQGRVTITADKSTSTAYMELTSLRSDDTAVYYCARGFNGNYYGWGDDDAFDISGQGTLVTVYS
VL: QTVLTQPPSVSGAPGQRVTISCTGSNSNIGAGYDVHWYQQLPGTAPKLLIAGNSNRPSGVPDRFSGSKSGTSASLAITGLQAEDEADYYCQSYDSSLSGPNWVFGGGTKLTVL
For B6, in assay [1], the Kd was found to be 0.422 nM.

B7: S2X259 variant antibody, VH SEQ ID NO 446 / VL SEQ ID NO 412 (antibody, V domains shown)
VH: QVQLVQSGAEVKKPGSSVKVSCKASGGIFNTYTISWVRQAPGQGLEWMGRIILISGIANYAQKIQGRVTITADKSTSTAYMELTSLRSDDTAVYYCARGFNGNYYGWGDDDAFDISGQGTLVTVYS
VL: QTVLTQPPSVSGAPGQRVTISCTGSNSNIGAGYDVHWYQQLPGTAPKLLICGNSNRPSGVPDRFSGSKSGTSASLAITGLQAEDEADYYCQSYDSSLSGPNWVFGGGTKLTVL
As to B7, the Kd in assay [1] worked out at 3.06 nM.
